PubChem BioAssay AID1259414 – Drosophila RNAi Screening Center, 2018

Assay: 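Host factors increasing or decreasing Wolbachia levels in cultured fly cells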 (primary screen)
System: Drosophila JW18 cells infected with Wolbachia
Reagent: long dsRNA against Drosophila genes, 0.25 µg dsRNA per well of a 384-well plate
Time to read-out: 5 days
Treatment: cells persistently infected with Wolbachia before knock-down; no added drug
Measurement: 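Imaged fluorescence in situ signal for Wolbachia 23S rRNA per DAPI-counted host cell, given as a robust z-score within each plate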
Direction: Wolbachia per cell robust z: higher = more Wolbachia per host cell than the plate typical
Hit rule: 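Active if absolute robust z reaches 1.5 in two or more of three replicates, leaving out multi- or no-target dsRNAs, genes unexpressed in JW18 and A1 wells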
The screen tested about 24,000 reagents; below is an unselected part of those with a known target gene and a result. In the full data, about 1,210 (5%) got an active call. 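Inactive calls also include excluded dsRNAs with several or no targets, genes unexpressed in JW18, and well A1, regardless of score.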 Reagents against one gene are numbered here. Names joined by + are all predicted targets of the reagent. No sequences are given here.

gene | dsRNA no. | Wolbachia per cell robust z, rep 1 | Wolbachia per cell robust z, rep 2 | Wolbachia per cell robust z, rep 3 | activity call
CG10931 (GeneID 37024) | 1 | 0.838 | 0.548 | 0.654 | inactive
Vrp1 (GeneID 37521) | 1 | -0.157 | 0.516 | -3.71 | inactive
Vrp1 (GeneID 37521) | 2 | 1.14 | 0.783 | 0.241 | inactive
CG42260 (GeneID 37614) | 1 | -4.82 | 0.948 | 1.12 | inactive
CG42260 (GeneID 37614) | 2 | 0.104 | -0.166 | -0.026 | inactive
lncRNA:CR43242 (GeneID 12798537) | 1 | -2.93 | 0.304 | -4.01 | active
CG1894 (GeneID 43378) | 1 | 0.00761 | 0.5 | -0.414 | inactive
Dhod (GeneID 41022) | 1 | -0.414 | 0.623 | -2.5 | inactive
dpr15 (GeneID 41473) | 1 | 0.953 | 1.35 | -0.537 | inactive
dpr15 (GeneID 41473) | 2 | 0.253 | 0.326 | 0.647 | inactive
dpr15 (GeneID 41473) | 3 | 0.36 | -0.0241 | 0.41 | inactive
ppk31 (GeneID 318575) | 1 | 0.211 | -0.429 | 0.755 | inactive
ppk31 (GeneID 318575) | 2 | 0.694 | 0.403 | -1.19 | inactive
CG44245 + Gyg | 1 | -8.72 | -0.704 | 0.327 | inactive
CG44245 + Gyg | 2 | 0.0016 | -1.66 | -2.23 | inactive
CG44245 + Gyg | 3 | 0.116 | -0.42 | -3.44 | inactive
CG34105 + CG12491 | 1 | 0.488 | 0.715 | 0.293 | inactive
CG34105 + CG12491 | 2 | -0.61 | -1.35 | -1.36 | inactive
Etl1 (GeneID 34311) | 1 | -1.73 | -1.3 | -0.499 | inactive
Uba4 (GeneID 34187) | 1 | -2.45 | 0.551 | -0.068 | inactive
Uba4 (GeneID 34187) | 2 | 0.0407 | -0.485 | 0.183 | inactive
RfC4 (GeneID 38492) | 1 | -8.96 | -0.453 | 0.0711 | inactive
RfC4 (GeneID 38492) | 2 | -1.15 | 0.408 | -1.16 | inactive
Dnaaf4 (GeneID 34547) | 1 | -0.468 | -0.329 | -0.97 | inactive
para (GeneID 32619) | 1 | 0.502 | 0.273 | 0.964 | inactive
para (GeneID 32619) | 2 | 0.0888 | -1.28 | -2.49 | inactive
CG33757 (GeneID 3772602) | 1 | -0.263 | -4.99 | -0.189 | inactive
f (GeneID 32718) | 1 | 0.674 | 0.253 | 0.812 | inactive
f (GeneID 32718) | 2 | -0.805 | -1.95 | -0.0097 | inactive
f (GeneID 32718) | 3 | -0.45 | 0.813 | 0.349 | inactive
f (GeneID 32718) | 4 | 0.176 | -0.647 | -0.736 | inactive
f (GeneID 32718) | 5 | 0.0883 | 0.717 | 0.346 | inactive
bw (GeneID 37724) | 1 | -0.173 | -0.992 | -2.89 | inactive
bw (GeneID 37724) | 2 | -0.806 | -0.633 | -0.836 | inactive
Ufl1 (GeneID 40843) | 1 | 0.0611 | 0.342 | 0.0788 | inactive
c(2)M (GeneID 34964) | 1 | 0.0917 | 1.17 | 0.0515 | inactive
Mitofilin (GeneID 42587) | 1 | 0.651 | -0.218 | 1.07 | inactive
CG14926 (GeneID 34567) | 1 | -1.58 | 0.364 | 0.539 | inactive
CG15534 (GeneID 43613) | 1 | -0.745 | 1.13 | 0.0374 | inactive
CG15534 (GeneID 43613) | 2 | 0.528 | 1.92 | 0.978 | inactive
nsl1 (GeneID 41911) | 1 | 0.726 | 0.742 | 0.573 | inactive
CG9737 (GeneID 43600) | 1 | -1.24 | 0.319 | 0.438 | inactive
ro (GeneID 43234) | 1 | 0.823 | -0.284 | -0.291 | inactive
ro (GeneID 43234) | 2 | 0.4 | 2.07 | 1.45 | inactive
lark (GeneID 38811) | 1 | 1.01 | 1.42 | 2.16 | inactive
lark (GeneID 38811) | 2 | 2.2 | 2.52 | 1.09 | active
CG18476 (GeneID 41404) | 1 | -3.24 | -0.433 | -0.679 | inactive
Ak3 (GeneID 41318) | 1 | 0.24 | 0.205 | 0.716 | inactive
Ak3 (GeneID 41318) | 2 | -0.566 | -1.39 | 0.75 | inactive
Sil1 (GeneID 43034) | 1 | -5.59 | -0.171 | -6.28 | active
CG7518 (GeneID 41599) | 1 | 0.43 | -0.0114 | -0.271 | inactive
CG7518 (GeneID 41599) | 2 | 0.147 | 0.435 | 0.919 | inactive
CG8892 (GeneID 33719) | 1 | 0.468 | -0.507 | 1.59 | inactive
heca (GeneID 43604) | 1 | 0.912 | -0.556 | -4.42 | inactive
heca (GeneID 43604) | 2 | 0.193 | 1.53 | 0.636 | inactive
Tsp (GeneID 33941) | 1 | 0.723 | -0.0114 | -3.43 | inactive
Tsp (GeneID 33941) | 2 | -0.771 | -0.0933 | -0.00425 | inactive
CG3690 (GeneID 31047) | 1 | 0.823 | -1.33 | -0.819 | inactive
CG3690 (GeneID 31047) | 2 | -5.21 | -0.0722 | -3.46 | inactive
CG17105 (GeneID 34466) | 1 | 1.16 | 0.322 | 0.111 | inactive
CG17105 (GeneID 34466) | 2 | -1.22 | -0.161 | -1.32 | inactive
CG4763 (GeneID 37771) | 1 | -0.184 | -1.44 | -7.53 | inactive
CG4763 (GeneID 37771) | 2 | 0.0756 | -0.878 | 0.136 | inactive
ich (GeneID 41069) | 1 | 0.511 | 0.162 | 0.332 | inactive
ich (GeneID 41069) | 2 | 0.694 | 0.904 | -0.0388 | inactive
CG34459 (GeneID 5740101) | 1 | 0.249 | -3.1 | 1.02 | inactive
l(2)09851 (GeneID 46662) | 1 | 1.01 | -0.142 | 1.08 | inactive
CG15549 (GeneID 43665) | 1 | -0.619 | -0.775 | -5.58 | inactive

Records above with an active call, once more:
gene | dsRNA no. | Wolbachia per cell robust z, rep 1 | Wolbachia per cell robust z, rep 2 | Wolbachia per cell robust z, rep 3 | activity call
lncRNA:CR43242 (GeneID 12798537) | 1 | -2.93 | 0.304 | -4.01 | active
lark (GeneID 38811) | 2 | 2.2 | 2.52 | 1.09 | active
Sil1 (GeneID 43034) | 1 | -5.59 | -0.171 | -6.28 | active
